Measured values from several laboratories, pooled; numbers as filed in NIAID ChemDB.

Shared fields: growth or infection tests; species: Candida albicans; read-out: MIC

Blank or dashed fields: not listed here. Neighbouring rows are from separate reports.

structure | strain or isolate | result
O=C(O)c1ccc(NC(=S)N/N=C/c2ccc(Cl)cc2)cc1 |  | 2.99 µM
C=C(CCC1(O)O[C@H]2C[C@H]3[C@@H]4CC=C5C[C@@H](O)[C@H](O)[C@@H](O[C@@H]6O[C@H](CO)[C@H](O)[C@H](O)[C@H]6O)[C@]5(C)[C@H]4CC[C@]3(C)[C@H]2[C@@H]1C)CO[C@@H]1O[C@H](CO)[C@@H](O)[C@H](O)[C@H]1O |  | 10 µg/mL
C=C(Cc1ccc(O)cc1)C(O)(CO)Cc1ccc(OC)cc1O |  | 80 µg/mL
Cc1nn(-c2ccccc2)c(Oc2ccccc2)c1C1C(C#N)=C(N)OC2=C1C(=O)CC(C)(C)C2 | MTCC 227 | 500 µg/mL
CCCC(N)C1CCN(c2c(F)cn3c(=O)c(C(=O)O)cc(C4CC4)c3c2C)C1.Cl | CCH442 | 50 µg/mL
COc1ccc(Cc2cc3cc(OC)c(OC)cc3c[n+]2C)cc1OC | IFO1061 | >500 µg/mL
Cc1nn(-c2ccccc2)c(Oc2ccccc2)c1C1C(C#N)=C(N)OC2=C1C(=O)CCC2 | MTCC 227 | >1000 µg/mL
C=C1CO[C@@]2(O[C@H]3C[C@H]4[C@@H]5CC=C6C[C@@H](O)[C@H](O)[C@@H](O[C@@H]7O[C@H](CO)[C@H](O)[C@H](O)[C@H]7O)[C@]6(C)[C@H]5CC[C@]4(C)[C@H]3[C@@H]2C)[C@@H](O)C1 |  | ≥20 µg/mL
CC/C=C/[C@H](CC)C/C(=C/[C@@]1(CC)C[C@H](CC)[C@H](CC(=O)O)OO1)CC |  | 5 µg/mL
O=[N+]([O-])/C=C/c1c[nH]c2ccccc12 |  | >1600 µg/mL
O=C(O)c1ccc(NC(=S)N=Nc2c(O)[nH]c3ccccc23)cc1 |  | 2.32 µM
Cc1c(/C=C/[N+](=O)[O-])c2ccccc2n1C |  | 400 µg/mL
C[CH2][Ge]([CH2]C)([CH2]C)[S]C[C@@H]1CCCN2CCCC[C@H]12 | ATCC 10231 | 250 µg/mL
C/C(=C\c1c(C)[nH]c2ccccc12)[N+](=O)[O-] |  | 25 µg/mL
COc1ccc2c(c1)[nH]c1c(C)c3sc(C)c(C)c3cc12 | CECT 1394 | 100 µg/mL
CCCC1c2cc(O)c(O)cc2CCN1CCC | IFO1061 | >500 µg/mL
C[C@@H]1CC[C@@]2(OC1)O[C@H]1C[C@H]3[C@@H]4CC=C5C[C@@H](O)[C@H](O)[C@@H](O[C@@H]6OC[C@@H](O)[C@H](O)[C@H]6O[C@@H]6O[C@@H](C)[C@H](O)[C@@H](O)[C@H]6O)[C@]5(C)[C@H]4CC[C@]3(C)[C@H]1[C@@H]2C |  | ≥20 µg/mL
Cc1ccc(-n2nc(C)c(C3C(C#N)=C(N)OC4=C3C(=O)CCC4)c2Oc2ccccc2)cc1 | MTCC 227 | 250 µg/mL
CCCOc1cc2cc[n+](C)c(CC)c2cc1OCCC | IFO1061 | >500 µg/mL
C[n+]1cccc(-n2[se]c3ccccc3c2=O)c1 |  | >500 µg/mL
CSCC[C@H](N)[C@@H]1CCN(c2c(F)cn3c(=O)c(C(=O)O)cc(C4CC4)c3c2C)C1 | CCH442 | >100 µg/mL
Cc1c2cc(OCc3ccccc3)c(OCc3ccccc3)cc2cc[n+]1C | IFO1061 | 250 µg/mL
C/C(=C\c1c(C)n(C)c2ccccc12)[N+](=O)[O-] |  | 400 µg/mL
Cc1ccc(Oc2c(C3C(C#N)=C(N)OC4=C3C(=O)CC(C)(C)C4)c(C)nn2-c2ccccc2)cc1 | MTCC 227 | 1000 µg/mL
CCc1c2cc(OCc3ccccc3)c(OCc3ccccc3)cc2cc[n+]1C | IFO1061 | 250 µg/mL
COc1ccc(/C=N/NC(=S)Nc2ccc(C(=O)NO)cc2)cc1 |  | 1.56 µM
CC(=O)O[C@@H]1C[C@]2(C)C3=C(CC[C@H]2C(C)(C)[C@H]1O[C@@H]1C[C@H](CO)[C@@H](O)[C@H](O)[C@H]1O)[C@@]1(C)CC[C@](C)([C@H](C)C(C)C)[C@@H](C(=O)O)[C@]1(C)CC3 | FP633 | 1.6 µg/mL
CCCCCCCCCCNC1CCc2c(O)cccc2C1 |  | <0.125 µM
O=c1[nH][se]c2ccccc12 |  | 256 µg/mL
Cc1nccc2cc(O)c(O)cc12 | IFO1061 | >500 µg/mL
O=[N+]([O-])c1ccc(CNC2CCc3c(O)cccc3C2)cc1 |  | >64 µM
CC1NCCc2cc(O)c(O)cc21 | IFO1061 | >500 µg/mL
O=C(NO)c1ccc(NC(=S)N/N=C/c2ccccc2O)cc1 |  | 2.66 µM
CCCCCCCCNC1CCc2cc(O)ccc2C1 |  | <0.125 µM
CCC(C)n1ncn(-c2ccc(N3CCN(c4ccc(OC[C@H]5CO[C@](Cn6cncn6)(c6ccc(Cl)cc6Cl)O5)cc4)CC3)cc2)c1=O | Isogenic isolate 11 (25X) | 0.03 µg/mL
Cc1ccc(/C(Cl)=N/NC(=S)Nc2ccc(C(=O)NO)cc2)cc1 |  | 1.29 µM
C[C@@H]1CC[C@@]2(OC1)O[C@H]1C[C@H]3[C@@H]4CC=C5C[C@@H](O)[C@H](O)[C@@H](O[C@@H]6OC[C@@H](O)[C@H](O)[C@H]6O[C@@H]6O[C@@H](C)[C@H](O)[C@@H](O)[C@H]6O)[C@]5(C)[C@H]4CC[C@]3(C)[C@@]1(O)[C@@H]2C |  | 20 µg/mL
Cc1c(N2CC3CCC(C)(N)C3C2)c(F)cn2c(=O)c(C(=O)O)cc(C3CC3)c12.Cl | CCH442 | >100 µg/mL
Oc1ccc2c(c1)O[C@H](c1ccc3c(c1)OCO3)CC2 |  | 6 µg/mL
Cc1c(N2CC(CN(C)C)CC3CCCC32)c(F)cn2c(=O)c(C(=O)O)cc(C3CC3)c12.Cl | CCH442 | >100 µg/mL
C[CH2][Sn]([CH2]C)([CH2]C)[S]C[C@@H]1CCCN2CCCC[C@H]12 | ATCC 10231 | 15.63 µg/mL
O=c1cc(-c2ccccc2)oc2cc(O)c(O)c(O)c12 | ATCC64550 | 26 µg/mL
c1cc[c]([Sn]([S]C[C@@H]2CCCN3CCCC[C@H]23)([c]2ccccc2)[c]2ccccc2)cc1 | ATCC 10231 | 1.95 µg/mL
O=C(NO)c1ccc(NC(=S)N/N=C/c2ccc(Cl)cc2)cc1 |  | 1.55 µM
Cc1sc2c(C)c(Nc3ccccc3Cl)ccc2c1C | CECT 1394 | 50 µg/mL
Cc1ccc(-n2nc(C)c(C3C(C#N)=C(N)OC4=C3C(=O)CCC4)c2Oc2ccc(Cl)cc2)cc1 | MTCC 227 | 250 µg/mL
CC[CH2][Sn]([CH2]CC)([CH2]CC)[S]C[C@@H]1CCCN2CCCC[C@H]12 | ATCC 10231 | 1.95 µg/mL
CCCCCCCCCCNC1CCc2cccc(O)c2C1 |  | <0.125 µM
O=C/C=C/c1ccccc1 | STD no 41 | 300 µg/mL
CCCCC[C@@H](O)[C@H]1C(=O)O[C@H](C)[C@@H](O)/C=C/C=C/C=C/C=C/C=C(\C)[C@@H](O)[C@H](O)[C@H](O)C[C@H](O)C[C@H](O)C[C@H](O)C[C@H](O)C[C@@H]1O | IPA | 6.5 µg/mL
CCCCCc1nccc2cc(OCCC)c(OCCC)cc12 | IFO1061 | >500 µg/mL
NC(=S)c1ncn([C@@H]2O[C@H](CO)[C@@H](O)[C@H]2O)c1S |  | 0.05 µM
O=c1c2cccnc2[se]n1-c1ccccc1 |  | >500 µg/mL
CC(C/C=C/C=C/CC/C=C\C=C\CCC(C)(C)C)C(O)C(O)C(O)C(O)C(O)C1OC(=O)C(O)C1O | IAM4888 | 6.3 µg/mL
Clc1ccc(CCC(Cn2ccnc2)Sc2c(Cl)cccc2Cl)cc1 |  | 6 µg/mL
CCCc1nccc2cc(O)c(O)cc12 | IFO1061 | >500 µg/mL

5 of the rows above, restated:

structure,strain or isolate,result
CCCC1c2cc(O)c(O)cc2CCN1CCC,IFO1061,>500 µg/mL
Cc1c(N2CC3CCC(C)(N)C3C2)c(F)cn2c(=O)c(C(=O)O)cc(C3CC3)c12.Cl,CCH442,>100 µg/mL
O=[N+]([O-])/C=C/c1c[nH]c2ccccc12,,>1600 µg/mL
CCCCC[C@@H](O)[C@H]1C(=O)O[C@H](C)[C@@H](O)/C=C/C=C/C=C/C=C/C=C(\C)[C@@H](O)[C@H](O)[C@H](O)C[C@H](O)C[C@H](O)C[C@H](O)C[C@H](O)C[C@@H]1O,IPA,6.5 µg/mL
Cc1ccc(/C(Cl)=N/NC(=S)Nc2ccc(C(=O)NO)cc2)cc1,,1.29 µM